Construct, isoform or probe ends are uncertain for at least one entry.
Biological target: MtrA~P phosphorylated via wild-type MtrB (UniProt P9WGM7)
Assay: EMSA
Conditions: recombinant protein; protein details: 6xHis (pProEx-HT); label: 32P 5' end label; probe letters rebuilt from the primers and the genome

“TTGCGCCCTTTCACCTCACGATGAGTTCGATCCCGTGGCTAGCGCCCCGCTAGCGTGGGGACTGCCAACGACGAATGCCCATGACGCGTGACCCGCCACGACGGCCGCAACAGCAGTCGAACAACAACCGTAGAGCTTCTCACGTCAACTTGAAAGTTCATCATTGACCTCTGACCCACCGCGACGAGCCAGTTATGCGGGTGGTATCCAGCGAACGATCCCCAGCGCTGTCTTTCCAAGAACAAACGACGAAGAAATCTCGGTAACAGTATTAGAGGGTGTGCAGTTTGGGGACAGTCTGGTCTTGGTGCAGGTCGACGTCGGTCGGAGTTGTGGATGACGGTGGCGATGACTGTGGGGTGTGTGTTGGGTCGGTGGGGATGAGGCGTGGGTTGTGAACGGAACCGCCGGGACTGTATGAGTCTGTGCGCGGTTTGTGCACAGCGACACTCACAGCCAATCTCTGTGACTGGTGTGACCTGGGAGAGAGAAGTTTTTTTAAGAACGTTGTCGGAAGAACACGCCGTGCTAGCGCTTGGAGCGCTGACGGATG (double strand) [oriC 526 bp]”: binds.

— paper PMC8445491
